Pooled drug test results. Numbers come from NIAID ChemDB, via PubChem.

All rows: enzyme or target tests; species: HIV-1; protein: Protease; endpoint: Ki

Rows are shuffled and stem from different studies.

SMILES | strain or isolate | changes | method | value
CCC(c1cccc(NC(=O)[C@H](C)N)c1)c1c(O)c2ccccc2oc1=O | - | - | substrate cleavage | 0.18 µM
CNC(=O)c1cccc(CN2[C@H](COc3ccccc3)[C@H](O)[C@@H](O)[C@@H](COc3ccccc3)N(Cc3cccc(C(=O)NC)c3)S2(=O)=O)c1 | - | PR-I84V | - | 0.56 µM
CC(C)C[C@H](NC(=O)[C@@H](NC(=O)CCCCCCCCCCCCCCC(=O)N[C@@H](CC(N)=O)C(=O)N[C@@H](Cc1ccccc1)C(=O)O)C(C)O)C(=O)N[C@@H](Cc1ccccc1)C(N)=O | - | - | - | 3 µM
CCCCNC(=O)[C@H](C)C[C@H](O)[C@H](CC1CCCCC1)NC(=O)[C@@H](NC(=O)[C@@H](NC(=O)OC(C)(C)C)[C@@H](C)O)C(C)C | - | - | - | 0.077 µM
CC[C@H](C)[C@H](NC(=O)[C@@H]1CCCN1C(=O)C=O)C(=O)N[C@H](C(N)=O)C(C)C | - | - | absorbance | 520 µM
CC(C)C[C@H](NC(=O)[C@@H](NC(=O)CCCCCCCCCCCCCCC(=O)N[C@@H](Cc1ccc(O)cc1)C(=O)N[C@@H](Cc1ccccc1)C(=O)O)C(C)O)C(=O)N[C@@H](Cc1ccccc1)C(N)=O | - | - | - | 3 µM
CCCCCCCCCCCCCCCC(=O)N[C@@H](Cc1ccc(O)cc1)C(=O)N[C@@H](CCC(=O)O)C(=O)N[C@@H](Cc1ccc(O)cc1)C(=O)O | - | - | fluorescence | 2 µM
CCCCNC(=O)[C@H](C)C[C@H](O)[C@H](CC1CCCCC1)NC(=O)[C@@H](NC(=O)[C@H](CCC(N)=O)NC(=O)OC(C)(C)C)C(C)(C)C | - | - | - | 0.0563 µM
O=C1N(Cc2cccc(-c3ncc[nH]3)c2)[C@H](Cc2ccccc2)[C@H](O)[C@@H](O)[C@@H](Cc2ccccc2)N1Cc1cccc(-c2ncc[nH]2)c1 | RF | - | fluorescence | 0.00016 µM
CC(C)(C)NC(=O)[C@@H]1CCCN1C(=O)[C@@H](O)[C@H](Cc1ccccc1)NC(=O)[C@H](CC(N)=O)NC(=O)c1ccc2ccccc2n1 | IIIB | - | HPLC | 0.027 µM
CC(C)C[C@@H](C=O)NC(=O)[C@H](CCC(=O)O)NC(=O)[C@H](Cc1ccc(O)cc1)NC(=O)CCCc1ccccc1 | - | - | fluorescence | 11 µM
CC(C)=CCc1c(CO)cc2oc3cc(O)c(O)c(CC=C(C)C)c3c(=O)c2c1O | - | - | HPLC | 7.8 ± 0.4 µM
COC(=O)[C@@H](NC(=O)[C@@H](NC(=O)[C@H](C)C[C@H](O)[C@H](Cc1ccccc1)NC(=O)[C@H](C)NC(=O)[C@H](C)NC(=O)OCc1ccccc1)C(C)C)C(C)C | - | - | - | 0.0007 µM
O=C(Cc1ccc2c(c1)OCO2)N[C@@H](Cc1ccccc1)[C@@H](O)C[C@H](Cc1ccccc1)NC(=O)[C@@H]1CN(c2ccccc2)C(=O)O1 | - | - | FRET | 0.657 µM
O=C1N(Cc2cccc(-c3cn[nH]n3)c2)[C@H](Cc2ccccc2)[C@H](O)[C@@H](O)[C@@H](Cc2ccccc2)N1Cc1cccc(-c2cn[nH]n2)c1 | RF | - | fluorescence | 0.00017 µM
COC(=O)[C@@H](NC(=O)[C@@H](NC(=O)[C@@H]1CCCC1P(=O)(O)[C@H](Cc1ccccc1)NC(=O)[C@H](C)NC(=O)[C@H](C)NC(=O)[C@@H](N)CO)C(C)C)C(C)C | - | - | - | 4 µM
CN1[C@H](COc2ccccc2)[C@H](O)[C@@H](O)[C@@H](COc2ccccc2)N(C)S1(=O)=O | - | PR-I84V | - | 20 µM
CC(=O)c1cccc(CN2C(=O)N(Cc3cccc(C(C)=O)c3)[C@H](Cc3ccccc3)[C@H](O)[C@@H](O)[C@H]2Cc2ccccc2)c1 | RF | - | - | 0.00006 µM
CCCCNC(=O)[C@H](C)C[C@H](O)[C@H](CC1CCCCC1)NC(=O)[C@@H](NC(=O)[C@H](CCC(N)=O)NC(=O)OC(C)(C)C)[C@@H](C)CC | - | - | - | 0.15 µM
CC(C)(C)NC(=O)[C@@H]1CCCN1C(=O)[C@@H](O)[C@H](Cc1ccccc1)NC(=O)[C@H](CC(N)=O)NC(=O)c1cnc2ccccc2n1 | IIIB | - | HPLC | 0.011 µM
CC[C@H](C)[C@H](NC(=O)[C@H](Cc1ccccc1)C[C@H](O)[C@H](Cc1ccccc1)NC(=O)OC(C)(C)C)C(=O)NCc1nc2ccccc2[nH]1 | - | - | HPLC | 0.00007 µM
CC[C@H](C)[C@H](NC(C)=O)C(=O)N[C@@H](CO)C(=O)N[C@@H](Cc1ccc(O)cc1)C(=O)N[C@@H](CCC(=O)O)C(=O)N[C@H](C=O)CC(C)C | - | - | fluorescence | 0.6 µM
O=C1c2ccccc2C(=O)c2c1ccc(O)c2O | - | - | fluorescence | 12.3 µM
CCCCNC(=O)[C@H](C)C[C@H](O)[C@H](CC1CCCCC1)NC(=O)[C@H](CC(N)=O)NC(=O)[C@H](CCC(N)=O)NC(=O)OC(C)(C)C | - | - | - | 1.05 µM
C[C@H]1CCCCCCCCCCOC(=O)N(C[C@@H](O)[C@H](Cc2ccccc2)NC(=O)O[C@H]2CO[C@H]3OCC[C@H]32)C1 | - | - | - | 0.0089 µM
Cc1cc(SC2=C(O)C[C@@](CCc3ccc(N)cc3)(C(C)C)OC2=O)c(C(C)(C)C)cc1CO | - | - | - | 0.0001 µM
CC(C)[C@H](NC(=O)N(C)Cc1ccccn1)C(=O)N[C@@H](Cc1ccccc1)[C@H](O)[C@H](O)[C@H](Cc1ccccc1)NC(=O)[C@@H](NC(=O)N(C)Cc1ccccn1)C(C)C | - | - | substrate cleavage | 0.00001 µM
Cc1cccc(C)c1OCC(=O)N[C@@H](Cc1ccccc1)[C@@H](O)C[C@H](Cc1ccccc1)NC(=O)[C@@H]1CN(c2ccccc2)C(=O)O1 | WT | - | FRET | 0.00728 µM
O=S1(=O)N(Cc2ccc(CO)cc2)[C@H](COc2ccccc2)[C@H](O)[C@@H](O)[C@@H](COc2ccccc2)N1Cc1ccc(CO)cc1 | - | PR-I84V | - | 0.046 µM
CCCCNC(=O)[C@H](C)C[C@H](O)[C@H](CC1CCCCC1)NC(=O)[C@@H](NC(=O)[C@H](CCCN=C(N)N[N+](=O)[O-])NC(=O)OC(C)(C)C)C(C)C | - | - | - | 0.145 µM
O=C1N(Cc2cccc(-c3ncn[nH]3)c2)[C@H](Cc2ccccc2)[C@H](O)[C@@H](O)[C@@H](Cc2ccccc2)N1Cc1cccc(-c2ncn[nH]2)c1 | RF | - | - | 0.000052 µM
CCCCNC(=O)[C@H](C)C[C@H](O)[C@H](CC1CCCCC1)NC(=O)[C@@H](NC(=O)[C@H](CCCCN)NC(=O)OC(C)(C)C)[C@@H](C)CC | - | - | - | 0.7 µM
O=C1N(Cc2cccc(-c3ccn[nH]3)c2)[C@H](Cc2ccccc2)[C@H](O)[C@@H](O)[C@@H](Cc2ccccc2)N1Cc1cccc(-c2ccn[nH]2)c1 | RF | - | - | 0.000027 µM
CC[C@H](C)[C@H](NC(=O)[C@@H](C[C@H](O)[C@H](CC(C)C)NC(=O)[C@H](C)NC(=O)[C@H](CCC(N)=O)NC(=O)[C@H](CO)NC(=O)[C@@H](N)C(C)C)C(C)C)C(=O)N[C@H](C(=O)O)C(C)C | - | - | - | <0.01 µM
CCC(=O)c1cccc(CN2C(=O)N(Cc3cccc(C(=O)CC)c3)[C@H](Cc3ccccc3)[C@H](O)[C@@H](O)[C@H]2Cc2ccccc2)c1 | RF | - | fluorescence | 0.00021 µM
O=C(N[C@@H](Cc1ccccc1)[C@@H](O)CN(Cc1ccc(-c2ccccn2)cc1)NC(=O)[C@@H]1CN(c2ccccc2)C(=O)O1)[C@@H]1CN(c2ccccc2)C(=O)O1 | - | Q7K | substrate cleavage / FRET | 0.3 µM
CCCCCCCC(=O)N[C@@H](Cc1ccc(O)cc1)C(=O)N[C@@H](CCC(=O)O)C(=O)N[C@H](C=O)CC(C)C | - | - | fluorescence | 1 µM
O=S1(=O)N(Cc2cccc(-c3cccs3)c2)[C@H](COc2ccccc2)[C@H](O)[C@@H](O)[C@@H](COc2ccccc2)N1Cc1cccc(-c2cccs2)c1 | - | PR-V82A | - | 39 µM
CC[C@H](C)[C@H](NC(=O)[C@@H]1CCCN1C(=O)[C@H](Cc1ccccc1)NC(=O)C=O)C(=O)N[C@H](C(N)=O)C(C)C | - | - | absorbance | 700 µM
CC(=O)N[C@@H](Cc1ccccc1)C(=O)N[C@@H](CO)C(=O)N[C@H](C(=O)N[C@@H](CCC(=O)O)C(=O)N[C@@H](CC(C)C)C(=O)O)c1ccc(OC(=O)c2ccccc2)cc1 | - | - | fluorescence | 0.4 µM
CNC(=O)[C@@H](NC(=O)[C@H](OCc1ccccc1)[C@H](O)[C@@H](O)[C@@H](OCc1ccccc1)C(=O)N[C@H]1c2ccccc2C[C@H]1O)C(C)C | - | PR-V82A | - | 0.00015 µM
CCCCNC(=O)[C@H](C)C[C@H](O)[C@H](CC1CCCCC1)NC(=O)[C@@H](NC(=O)[C@H](Cc1cccc2ccccc12)NC(=O)OC(C)(C)C)C(C)C | - | - | - | 0.115 µM

Again, the opening 3 rows:

| SMILES | strain or isolate | changes | method | value |
|---|---|---|---|---|
| CCC(c1cccc(NC(=O)[C@H](C)N)c1)c1c(O)c2ccccc2oc1=O | - | - | substrate cleavage | 0.18 µM |
| CNC(=O)c1cccc(CN2[C@H](COc3ccccc3)[C@H](O)[C@@H](O)[C@@H](COc3ccccc3)N(Cc3cccc(C(=O)NC)c3)S2(=O)=O)c1 | - | PR-I84V | - | 0.56 µM |
| CC(C)C[C@H](NC(=O)[C@@H](NC(=O)CCCCCCCCCCCCCCC(=O)N[C@@H](CC(N)=O)C(=O)N[C@@H](Cc1ccccc1)C(=O)O)C(C)O)C(=O)N[C@@H](Cc1ccccc1)C(N)=O | - | - | - | 3 µM |

Blank or dashed fields: not listed here.